Source: patent publication US20040097594A1 (priority 1998, published 2004)

Tested on: HIV-1 (strain IIIB)
Test: Antiviral Activity Assay in MT4 Cells (propidium iodide based procedure)
Type: cell-based
Details: read-out: IC50 (MT-4 cells); MT4 cells infected with HIV-1 strain IIIB, 5 days; lower line of each compound's entry

## N-[2-(3-[[(2R,3S)-3-([(3R,3aS,6aR)hexahydrofuro[2,3-b]furan-3-yloxy]carbonylamino)-2-hydroxy-4-phenylbutyl](cyclopentyloxy)amino]sulfonylanilino)ethyl]-O-methyl-N′-(nitro)isourea and N-[2-(3-[[(2R,3S)-3-([(3S,3aR,6aS)hexahydrofuro[2,3-b]furan-3-yloxy]carbonylamino)-2-hydroxy-4-phenylbutyl](cyclopentyloxy)amino]sulfonylanilino)ethyl]-O-methyl-N′-(nitro)isourea
  IC50: 100 to 500 nM
